Compound potency records, mixed from different reports. Data source: NIAID ChemDB in PubChem.

Shared fields: tests on isolated targets

Fold resistance has wild type as its base. Conditions beyond the fields shown may differ between rows. ICn: concentration for n% inhibition. Two numbers with a dash give a range or band. An empty or dashed field is not shown. Percent inhibition refers to the dose given; in toxicity tests it is the harm to the cells.

smiles,dose,read-out,strain or isolate,protein,method,species,mutations,result
c1ccc2c(-c3cncc(N4CCN(c5cnccn5)CC4)n3)cccc2c1,,IC50,,UL97 kinase,,Cytomegalovirus,,<100 µM
CC(C)(C)c1ccc(-n2nnnc2SCC(=O)Nc2ccc(OCC(=O)NCC3CCC(C(=O)O)CC3)cc2Cl)c(Cl)c1,,IC50,WT,Reverse transcriptase,PicoGreen / fluorescence,HIV-1,,<1 µM
O=c1c(-c2cnccn2)cn2ccn(Cc3cccc(F)c3)c(=O)c2c1O,,IC50,,Integrase,ELISA,HIV-1,,0.01–0.1 µM
CC(C)(C)c1ccc(-n2nnnc2SCC(=O)Nc2ccc(NC(=O)Cc3ccsc3)cc2Cl)c(Cl)c1,,IC50,WT,Reverse transcriptase,PicoGreen / fluorescence,HIV-1,,<1 µM
O=C(O)CCN1C(=O)C(=Cc2ccc(-c3ccccc3C(F)(F)F)o2)SC1=S,,IC50,,NS5 polymerase,,Bovine viral diarrhea virus,,≤1 µM
c1ccc2c(-c3cncc(N4CCN(c5ccncc5)CC4)n3)cccc2c1,,IC50,,UL97 kinase,,Cytomegalovirus,,<10 µM
Cc1ccc(-c2ccc(C=C3SC(=S)N(c4ccc(C(=O)O)cc4)C3=O)o2)s1,,IC50,,NS5 polymerase,,Bovine viral diarrhea virus,,≤1 µM
Cc1ccc(-c2cncc(N3CCN(c4cccc(Cl)c4)CC3)n2)cc1,10 µM,inhibition,,UL97 kinase,,Cytomegalovirus,,>15%
Nc1nc2c(ncn2[C@H]2CO[C@@H](COP(=O)(O)OP(=O)(O)OP(=O)(O)O)O2)c(=O)[nH]1,,fold resistance,,Reverse transcriptase,radiometric,HIV,RT-K103N,0.55
COc1ccccc1C(=O)Nc1nnc(NC2CCCCCC2)s1,,IC50,,Polymerase,,Human cytomegalovirus,,>25 µM
CCCc1ccc(-c2ccc(C=C3SC(=S)N(CCC(=O)O)C3=O)o2)s1,,IC50,,NS5 polymerase,,Bovine viral diarrhea virus,,≤1 µM
O=C1c2c(O)c(=O)ccn2CCN1Cc1cc(Cl)cc(Cl)c1,,IC50,,Integrase,ELISA,HIV-1,,0.01–0.1 µM
CC(C)(C)c1ccc(-c2cncc(N3CCN(c4ccncc4)CC3)n2)cc1,,IC50,,UL97 kinase,,Cytomegalovirus,,<10 µM
O=C(O)CCN1C(=O)C(=Cc2ccc(-c3cc4ccccc4c4ccccc34)o2)SC1=S,,IC50,,NS5 polymerase,,Bovine viral diarrhea virus,,≤1 µM
CC(C)(C)OC(=O)Nc1ccsc1-c1nc(C(=O)O)c(O)c(=O)[nH]1,,IC50,,HCV polymerase,,Hepatitis C virus,,<25 µM
O=C(CCCCCl)Nc1nnc(NCc2ccc(F)cc2)s1,,IC50,,Polymerase,,Human cytomegalovirus,,>25 µM
O=C(O)c1ccc(N2C(=O)C(=Cc3ccc(-c4nccs4)o3)SC2=S)cc1,,IC50,,NS5 polymerase,,Bovine viral diarrhea virus,,≤1 µM
O=c1ccn2ccn(Cc3cccc(Cl)c3O)c(=O)c2c1O,,IC50,,Integrase,ELISA,HIV-1,,0.01–0.1 µM
O=C(O)c1nc(-c2ccccc2NS(=O)(=O)c2cccc3cccnc23)[nH]c(=O)c1O,,IC50,,HCV polymerase,,Hepatitis C virus,,<100 µM
CC(C)(C#Cc1ccc(NC(=O)CSc2nnnn2-c2cc(C(F)(F)F)cc(Cl)c2Cl)c(Cl)c1)NC(=O)c1cc[n+]([O-])cc1,,IC50,,Reverse transcriptase,PicoGreen / fluorescence,HIV-1,RT-K103 Y181C,<1 µM
COc1ccccc1C(=O)Nc1nnc(NCC2CCCCC2)s1,,IC50,,Polymerase,,Human cytomegalovirus,,>25 µM
COc1ccc(N2CCN(c3cncc(-c4cccc5ccccc45)n3)CC2)cc1OC,10 µM,inhibition,,UL97 kinase,,Cytomegalovirus,,>15%
CC(C)(C#Cc1ccc(NC(=O)CSc2nnnn2-c2cc(C3CC3)cc(C(F)(F)F)c2Cl)c(Cl)c1)C(=O)O,,IC50,,Reverse transcriptase,PicoGreen / fluorescence,HIV-1,RT-K103 Y181C,<1 µM
CC(C)(C)C(=O)Cc1c(C(=O)C(C)(C)C)c(=O)c(O)c2n1CCN(Cc1ccc(F)cc1)C2=O,,IC50,,Integrase,ELISA,HIV-1,,0.01–0.1 µM
C#CCCC(=O)Nc1ccc(NC(=O)CSc2nnnn2-c2ccc(C(C)(C)C)cc2Cl)c(Cl)c1,,IC50,,Reverse transcriptase,PicoGreen / fluorescence,HIV-1,RT-K103 Y181C,<1 µM
O=C(Nc1nnc(NCc2ccco2)s1)c1ccc(I)cc1,,IC50,,Polymerase,,Human cytomegalovirus,,>25 µM
Cc1cccc(N2CCN(c3cncc(-c4ccoc4)n3)CC2)c1C,10 µM,inhibition,,UL97 kinase,,Cytomegalovirus,,>15%
O=C(O)CP(=O)(O)O,2.5 µg/mL,inhibition,,DNA polymerase,,Epstein-Barr virus,,51.5%
O=C(Nc1nnc(NCCC(c2ccccc2)c2ccccc2)s1)c1ccc(I)cc1,,IC50,,Polymerase,,Human cytomegalovirus,,>25 µM
CC(C)C(C(=O)Nc1cn2ccn(Cc3cccc(Cl)c3)c(=O)c2c(O)c1=O)C(C)C,,IC50,,Integrase,ELISA,HIV-1,,0.01–0.1 µM
O=C(O)CCN1C(=O)C(=Cc2ccc(C#Cc3ccccc3)s2)SC1=S,,IC50,,NS5 polymerase,,Bovine viral diarrhea virus,,≤1 µM
O=C(O)c1cc(F)ccc1CN1CCn2cc(-c3nccs3)c(=O)c(O)c2C1=O,,IC50,,Integrase,ELISA,HIV-1,,0.01–0.1 µM
Nc1nc(N)c2c(ccc3cc(Br)ccc32)n1,,IC50,TYPE 1,Dihydrofolate reductase,,Cryptosporidium parvum,,>10 µM
O=C(O)c1ccc(N2C(=O)C(=Cc3ccc(-c4ccc(Cl)c(Cl)c4)o3)SC2=S)cc1,,IC50,,NS5 polymerase,,Bovine viral diarrhea virus,,≤1 µM
Nc1nc(N)c2c(n1)Cc1ccc(Cl)cc1-2,,IC50,TYPE 2,Dihydrofolate reductase,,Cryptosporidium parvum,,>10 µM
CCOc1ccc(-c2cncc(N3CCN(c4ccc(F)cc4F)CC3)n2)cc1,,IC50,,UL97 kinase,,Cytomegalovirus,,<100 µM
CC(C)(C)c1ccc(-n2nnnc2SCC(=O)Nc2ccc(OCC(=O)NCCO)cc2Cl)c(Cl)c1,,IC50,WT,Reverse transcriptase,PicoGreen / fluorescence,HIV-1,,<1 µM
COc1cc(CNc2ccc3nc(N)nc(N)c3c2Cl)cc(OC)c1OC,,IC50,TYPE 1,Dihydrofolate reductase,,Cryptosporidium parvum,,0.027 µM
CC(C)(C)c1ccc(-n2nnnc2SCC(=O)Nc2ccc(C(=O)Nc3ccc(/C=C/C(=O)O)cc3)cc2Cl)c(Cl)c1,,IC50,WT,Reverse transcriptase,PicoGreen / fluorescence,HIV-1,,<1 µM
Nc1nc(N)c2cc(Cl)ccc2n1,,IC50,TYPE 2,Dihydrofolate reductase,,Cryptosporidium parvum,,>10 µM
CC(C)(C)c1ccc(-n2nnnc2SCC(=O)Nc2ccc(C#CCO)cc2Cl)c(Cl)c1,,IC50,WT,Reverse transcriptase,PicoGreen / fluorescence,HIV-1,,<1 µM
O=C(O)c1nc(-c2ccccc2NS(=O)(=O)c2cc(Cl)c(Oc3ccc([N+](=O)[O-])cc3Cl)c(Cl)c2)[nH]c(=O)c1O,,IC50,,HCV polymerase,,Hepatitis C virus,,<100 µM
CC(C)(C)c1ccc(-n2nnnc2SCC(=O)Nc2ccc(OCC(=O)NCc3ccco3)cc2Cl)c(Cl)c1,,IC50,WT,Reverse transcriptase,PicoGreen / fluorescence,HIV-1,,<1 µM
O=C(OC1OC2COC(=O)c3cc(Oc4c(C(=O)OC5C(O)OC6COC(=O)c7cc(O)c(O)c(O)c7-c7c(cc(O)c(O)c7O)C(=O)OC6C5OC(=O)c5cc(O)c(O)c(O)c5)cc(O)c(O)c4O)c(O)c(O)c3-c3c(cc(O)c(O)c3O)C(=O)OC2C(OC(=O)c2cc(O)c(O)c(O)c2)C1O)c1cc(O)c(O)c(O)c1,,IC50,,DNA polymerase,,Epstein-Barr virus,,97.7 µg/mL
O=C(O)Cc1ccc(-c2ccc(NC(=O)CSc3nnnn3-c3ccc(C4CC4)cc3Cl)c(Br)c2)cc1,,IC50,,Reverse transcriptase,PicoGreen / fluorescence,HIV-1,RT-K103 Y181C,<1 µM
O=C(Nc1nnc(NCc2ccc(Cl)c(Cl)c2)s1)c1ccc([N+](=O)[O-])o1,,IC50,,Polymerase,,Human cytomegalovirus,,>25 µM
O=C(COc1ccc(NC(=O)CSc2nnnn2-c2ccc(C3CC3)cc2Cl)c(Cl)c1)NCCc1ccccn1,,IC50,WT,Reverse transcriptase,PicoGreen / fluorescence,HIV-1,,<1 µM
O=C(Nc1ccsc1-c1nc(C(=O)O)c(O)c(=O)[nH]1)OCc1cccc2cccc(Br)c12,,IC50,,HCV polymerase,,Hepatitis C virus,,<25 µM
O=C(CSc1nnnn1-c1ccc(C2CC2)cc1Cl)Nc1ccc(C(=O)NCc2cc[n+]([O-])cc2)cc1Cl,,IC50,,Reverse transcriptase,PicoGreen / fluorescence,HIV-1,RT-K103 Y181C,<1 µM
COc1cccc(N2CCN(c3cncc(-c4ccc(C)cc4)n3)CC2)c1,,IC50,,UL97 kinase,,Cytomegalovirus,,<10 µM
CC(C)(C#Cc1ccc(NC(=O)CSc2nnnn2-c2ccccc2Cl)c(Cl)c1)C(=O)O,,IC50,,Reverse transcriptase,PicoGreen / fluorescence,HIV-1,RT-K103 Y181C,<1 µM
O=C1c2c(O)c(=O)c(-c3ccccn3)cn2CCN1CCCc1c(F)cccc1Cl,,IC50,,Integrase,ELISA,HIV-1,,0.01–0.1 µM
CC(C)(C)c1ccc(-n2nnnc2SCC(=O)Nc2ccc(C#CCCCO)cc2Cl)c(Cl)c1,,IC50,,Reverse transcriptase,PicoGreen / fluorescence,HIV-1,RT-K103 Y181C,<1 µM
O=C(NCc1cccc(Cl)c1)Nc1cscc1-c1nc(C(=O)O)c(O)c(=O)[nH]1,,IC50,,HCV polymerase,,Hepatitis C virus,,<25 µM
CN(C)S(=O)(=O)NC(=O)C(C)(C)C#Cc1ccc(NC(=O)CSc2nnnn2-c2ccc(C3CC3)cc2Cl)c(Cl)c1,,IC50,WT,Reverse transcriptase,PicoGreen / fluorescence,HIV-1,,<1 µM
Fc1ccccc1N1CCN(c2cncc(-c3ccsc3)n2)CC1,1 µM,inhibition,,UL97 kinase,,Cytomegalovirus,,<50%
CN(C)C(=O)COC(C)(C)C#Cc1ccc(NC(=O)CSc2nnnn2-c2ccc(C(C)(C)C)cc2Cl)c(Cl)c1,,IC50,,Reverse transcriptase,PicoGreen / fluorescence,HIV-1,RT-K103 Y181C,<1 µM
O=C(Nc1ccsc1-c1nc(C(=O)O)c(O)c(=O)[nH]1)OCc1ccc(Oc2ccccc2)cc1,,IC50,,HCV polymerase,,Hepatitis C virus,,<25 µM
O=C(CSc1nnnn1-c1ccc(C(F)(F)F)cc1Cl)Nc1ccc(-c2ccc(OCCN3CCCCC3)cc2)cc1Cl,,IC50,WT,Reverse transcriptase,PicoGreen / fluorescence,HIV-1,,<1 µM
O=C(Nc1nnc(NCCSc2ccccc2)s1)c1ccc(Br)cc1,,IC50,,Polymerase,,Human cytomegalovirus,,<25 µM
CC(C)(C#Cc1ccc(NC(=O)CSc2nnnn2-c2ccc(C3CC3)cc2Cl)c(Cl)c1)NC(=O)CN1CCNCC1,,IC50,,Reverse transcriptase,PicoGreen / fluorescence,HIV-1,RT-K103 Y181C,<1 µM
CNC(=O)c1cn2c(CO)cn(Cc3ccc(F)c(Cl)c3)c(=O)c2c(O)c1=O,,IC50,,Integrase,ELISA,HIV-1,,<0.01 µM
CC(C)(C)c1ccc(-n2nnnc2SCC(=O)Nc2ccc(-c3ccc(OCCN4CC[C@@H](O)C4)cc3)cc2Cl)c(Cl)c1,,IC50,WT,Reverse transcriptase,PicoGreen / fluorescence,HIV-1,,<1 µM
O=C(O)CCN1C(=O)C(=Cc2ccc(-c3sccc3Cl)o2)SC1=S,,IC50,,NS5 polymerase,,Bovine viral diarrhea virus,,≤1 µM

For reference, 9 entries again:

smiles	dose	read-out	strain or isolate	protein	method	species	mutations	result
O=C(CSc1nnnn1-c1ccc(C2CC2)cc1Cl)Nc1ccc(C(=O)NCc2cc[n+]([O-])cc2)cc1Cl		IC50		Reverse transcriptase	PicoGreen / fluorescence	HIV-1	RT-K103 Y181C	<1 µM
Cc1ccc(-c2ccc(C=C3SC(=S)N(c4ccc(C(=O)O)cc4)C3=O)o2)s1		IC50		NS5 polymerase		Bovine viral diarrhea virus		≤1 µM
O=C(O)CCN1C(=O)C(=Cc2ccc(-c3cc4ccccc4c4ccccc34)o2)SC1=S		IC50		NS5 polymerase		Bovine viral diarrhea virus		≤1 µM
Nc1nc(N)c2c(ccc3cc(Br)ccc32)n1		IC50	TYPE 1	Dihydrofolate reductase		Cryptosporidium parvum		>10 µM
CC(C)(C#Cc1ccc(NC(=O)CSc2nnnn2-c2ccccc2Cl)c(Cl)c1)C(=O)O		IC50		Reverse transcriptase	PicoGreen / fluorescence	HIV-1	RT-K103 Y181C	<1 µM
O=C1c2c(O)c(=O)c(-c3ccccn3)cn2CCN1CCCc1c(F)cccc1Cl		IC50		Integrase	ELISA	HIV-1		0.01–0.1 µM
O=C(CCCCCl)Nc1nnc(NCc2ccc(F)cc2)s1		IC50		Polymerase		Human cytomegalovirus		>25 µM
O=c1c(-c2cnccn2)cn2ccn(Cc3cccc(F)c3)c(=O)c2c1O		IC50		Integrase	ELISA	HIV-1		0.01–0.1 µM
O=C(O)c1nc(-c2ccccc2NS(=O)(=O)c2cc(Cl)c(Oc3ccc([N+](=O)[O-])cc3Cl)c(Cl)c2)[nH]c(=O)c1O		IC50		HCV polymerase		Hepatitis C virus		<100 µM